## Single amino acid changes in Zika NS2B-NS3 and viral growth

From the data files of Ni et al. 2025, doi:10.1038/s41467-025-63602-z.

Protein: NS2B and the protease part of NS3 of Zika virus strain MR766. Positions count along the chain below; NS2B spans 2-131 and NS3 starts at 132.
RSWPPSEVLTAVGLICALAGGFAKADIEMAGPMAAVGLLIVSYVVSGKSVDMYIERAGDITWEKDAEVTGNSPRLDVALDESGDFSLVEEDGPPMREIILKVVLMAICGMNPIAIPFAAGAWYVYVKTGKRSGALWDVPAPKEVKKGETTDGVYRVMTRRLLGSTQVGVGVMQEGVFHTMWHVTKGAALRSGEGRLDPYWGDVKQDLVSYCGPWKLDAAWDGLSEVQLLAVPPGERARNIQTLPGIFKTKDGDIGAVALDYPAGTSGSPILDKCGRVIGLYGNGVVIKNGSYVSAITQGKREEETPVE

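Libraries of single mutants were passaged as virus pools on Huh-7.5 cells. Deep sequencing gave the change in frequency of each mutant relative to wild type, averaged over three replicate libraries (two for positions 207-308).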

Values are log2 effects on growth: 0 is wild type, lower means poorer growth.
Substitutions are written as wild-type residue, site number, new residue.
This list holds changes to methionine only.

With D91M the assay gave -1.70.
With G92M the assay gave -1.82.
With P93M the assay gave -2.79.
With P94M the assay gave -1.51.
With R96M the assay gave -4.46.
With E97M the assay gave -2.63.
With I98M the assay gave -2.78.
With I99M the assay gave -0.39.
With L100M the assay gave 0.19.
With K101M the assay gave -6.02.
With V102M the assay gave 0.60.
With V103M the assay gave -1.01.
With L104M the assay gave -1.07.
With A106M the assay gave -0.91.
With I107M the assay gave -1.04.
With C108M the assay gave -5.51.
With G109M the assay gave -5.22.
With N111M the assay gave -2.55.
With P112M the assay gave -5.44.
With I113M the assay gave -2.32.
With A114M the assay gave -0.95.
With I115M the assay gave -2.22.
With P116M the assay gave -5.88.
With F117M the assay gave -1.76.
With A118M the assay gave -5.04.
With A119M the assay gave -2.36.
With G120M the assay gave -0.60.
With A121M the assay gave -1.27.
With W122M the assay gave -4.06.
With Y123M the assay gave -0.13.
With V124M the assay gave -0.98.
With Y125M the assay gave -2.63.
With V126M the assay gave -0.25.
With K127M the assay gave -6.16.
With T128M the assay gave -5.60.
With G129M the assay gave -5.46.
With K130M the assay gave -5.73.
With R131M the assay gave -4.89.
With S132M the assay gave -5.77.
With G133M the assay gave -5.33.
With A134M the assay gave -5.00.
With L135M the assay gave -3.51.
With W136M the assay gave -6.88.
With D137M the assay gave -6.37.
With V138M the assay gave -3.01.
With P139M the assay gave -5.04.
With A140M the assay gave -4.71.
With P141M the assay gave -4.51.
With K142M the assay gave -1.64.
With E143M the assay gave -0.78.
With V144M the assay gave -1.58.
With K145M the assay gave -1.31.
With K146M the assay gave -1.48.

Six mutants with high scores were retested singly and none clearly outgrew wild type, so positive values are not proof of better growth.
The authors count -1 or higher as tolerated. Position 1 is the last residue of NS2A.
The region was split into three libraries (1-103, 104-206, 207-308).